Test results taken from patent US20050048073A1 (priority 2001, published 2005).
End groups of sequences in plain letters are not given here.

Assay: peptide made by a vendor (Fmoc solid-phase peptide synthesis)
Details: whole synthesis

Sequence | outcome
AGMLLLSLLL | Four peptides could not be purified to specifications
SVNMTSQVLL | Four peptides could not be purified to specifications
MPAILIALLV | Four peptides could not be purified to specifications
IPMTIAGLMF | Four peptides could not be purified to specifications
